Pooled drug test results. Numbers come from NIAID ChemDB, via PubChem.

Shared fields: whole-cell or culture tests; organism: HIV-1; read by: luciferase; read-out: EC50

Conditions beyond the fields shown may differ between rows.

smiles,mutations,setting,cells,strain or isolate,result
COc1cc(-c2ccc(C(=O)NC(CCN)c3nc(CO)cs3)[nH]2)ccn1,-,pseudotyped,TZM-bl,HXB2,>11 µM
CN1CCC(n2ccn3c(=O)c(O)c(-c4ncc(Cc5ccc(F)cc5)s4)nc23)C1=O,QHGS,-,HEK 293,-,0.5–1 µM
CN(C(=O)[C@H](Cc1cc(F)cc(F)c1)NC(=O)NS(=O)(=O)n1ccc2ccccc21)c1ccc2scnc2c1,-,-,MT-2,NL4-3,0.05 µM
Cn1nc(NS(C)(=O)=O)c2c(Cl)ccc(-n3c([C@H](Cc4cc(F)cc(F)c4)NC(=O)Cn4nc(C(F)F)c5c4C(F)(F)[C@@H]4C[C@H]54)nc4nc(-c5csc(S(C)(=O)=O)n5)ccc4c3=O)c21,-,-,MT-2,NL4-3,0.000065 µM
CC(C)(N)CC(NC(=O)c1ccc(-c2ccc(C(F)(F)F)cn2)[nH]1)c1nc(CO)cs1,-,pseudotyped,TZM-bl,HXB2,0.58 µM
Cc1cc(S(N)(=O)=O)ccc1NC(=O)COc1ccc(Cl)cc1C(=O)c1cc(F)cc(C(F)(F)F)c1,RT-K103N,-,HELA MAGI,IIIB,0.0019 µM
COc1cc2c(=O)[nH]c(-c3ccc[nH]3)nc2c(OC)c1OC,-,-,TZM-bl,NL4-3,6.212 µM
C[C@@H]1CN(C(=O)c2ccccc2)CCN1C(=O)C(=O)c1c[nH]c2c(C(=O)O)ccc(F)c12,-,-,HeLa + HELA CD4+/CCR5,-,<10 µM
O=C(Cn1cnc2c([N+](=O)[O-])cccc21)Nc1ccccn1,-,-,TZM-bl,UG070,8.65 µM
CCN(CC)S(=O)(=O)N1CCN(C(=O)C(=O)c2c[nH]c3c(C(=O)OC)ccc(F)c23)CC1,-,-,HeLa,Recombinant,1–5 µM
C#C[C@@]1(COP(=O)(O)OP(=O)(O)OP(=O)(O)O)C=C[C@H](n2cc(C)c(=O)[nH]c2=O)O1,T165A/M184V,-,TZM-bl,NL4-3,6 µM
Cn1nc(NS(C)(=O)=O)c2c(Cl)ccc(-n3c([C@H](Cc4cc(F)cc(F)c4)NC(=O)Cn4nc(C(F)F)c5c4C(F)(F)[C@@H]4C[C@H]54)nc4nc(-c5cnc(C(C)(C)O)s5)ccc4c3=O)c21,-,-,MT-2,NL4-3,0.000056 µM
CNC(=O)c1ccc(F)c2c(C(=O)C(=O)N3CCN(S(=O)(=O)N(C)C)CC3)c[nH]c12,-,-,HeLa,Recombinant,<1 µM
Cc1cn(CC(=O)Nc2ccccn2)c(=O)[nH]c1=O,-,-,TZM-bl,VB59,23.26 µM
COc1ccc(F)c2c(C(=O)C(=O)N3CCN(C(=O)c4ccc(N)cc4)C[C@H]3C)c[nH]c12,-,-,HeLa + HELA CD4+/CCR5,-,<10 µM
NCCC(NC(=O)c1ccc(-c2ccc(C(F)(F)F)cn2)[nH]1)c1cnc(CO)s1,-,pseudotyped,TZM-bl,HXB2,2.1 µM
C[C@H]1CN(C(=O)Cn2ccn3c(=O)c(O)c(-c4ncc(Cc5ccc(F)cc5S(=O)(=O)N(C)C)s4)nc23)C[C@H](C)O1,QHGS,-,HEK 293,-,<0.5 µM
Nc1ccn([C@@H]2CS[C@H](CO)O2)c(=O)n1,M184I,-,TZM-bl,NL4-3,0.7808 µM
COc1cnc(-n2cnc(C)n2)c2c1c(C(=O)C(=O)N1CCN(C(=O)c3ccccc3)CC1)cn2COP(=O)(O)O,M426R,-,U-87,NL4-3,0.0011 µM
COC(=O)c1ccc(F)c2c(C(=O)C(=O)N3CCN(S(=O)(=O)N4CCC4)CC3)c[nH]c12,-,-,HeLa,Recombinant,>5 µM
C[C@H](Cn1cnc2c(N)ncnc21)OCP(=O)(O)O,-,-,PBMC,NLAD8,0.005 µM
CN(C(=O)[C@H](Cc1cc(F)cc(F)c1)NC(=O)NS(=O)(=O)N1CCc2cncnc21)c1ccc2scnc2c1,-,-,MT-2,NL4-3,0.94 µM
Cc1cccc(C(F)(F)F)c1CN1CCc2cc(-c3c(C)nc(C)c([C@H](OC(C)(C)C)C(=O)O)c3N3CCC(C)(C)CC3)ccc2C1,-,-,MT-2,NL4-3,≤0.1 µM
Cn1nc(NS(C)(=O)=O)c2c(Cl)ccc(-n3c([C@H](Cc4cc(F)cc(F)c4)NC(=O)Cn4nc(C5CC5)c5c4C(F)(F)[C@@H]4C[C@H]54)nc4nc(OCCC(C)(F)F)ccc4c3=O)c21,-,-,MT-2,NL4-3,0.000027 µM
O=C(NCCN1CCCC2=C[C@@H]3C[C@@H](CN4CCCC[C@H]34)[C@@H]21)c1ccc(OC(F)(F)F)cc1,-,-,MT-4,NL4-3,>25 µM
Cn1nc(NS(C)(=O)=O)c2c(Cl)ccc(-n3c([C@H](Cc4cc(F)cc(F)c4)NC(=O)Cn4nc(C(F)F)c5c4C(F)(F)[C@@H]4C[C@H]54)nc4nc(-c5cc(C(F)(F)F)ncn5)ccc4c3=O)c21,-,-,MT-2,NL4-3,0.00028 µM
C[C@H]1CN(C(=O)Cn2ccn3c(=O)c(O)c(-c4ncc(Cc5ccc(F)cc5)s4)nc23)C[C@H](C)O1,Q148H/G140S,-,HEK 293,-,0.1–1 µM
Nc1ccc(C(=O)N2CCN(C(=O)C(=O)c3c[nH]c4cccc(Cl)c34)CC2)cc1,-,-,HeLa + HELA CD4+/CCR5,-,<10 µM
COC(=O)c1ccc(F)c2c(C(=O)C(=O)N3CCN(S(=O)(=O)N(C)C)CC3)c[nH]c12,-,-,HeLa,Recombinant,>5 µM
COc1ccc(Br)c2[nH]cc(C(=O)C(=O)N3CCN(C(=O)c4ccccc4)CC3)c12,-,-,HeLa + HELA CD4+/CCR5,-,<10 µM
O=C(NCCCCCCN1CCCC2=C[C@@H]3C[C@@H](CN4CCCC[C@H]34)[C@@H]21)c1c(F)cc(Cl)cc1F,-,-,MT-4,NL4-3,>20 µM
Cc1nc(C)c([C@H](OC(C)(C)C)C(=O)O)c(N2CCC(C)(C)CC2)c1-c1ccc2c(c1)CCN(C(C)c1cccc(C(F)(F)F)c1)C2,-,-,MT-2,NL4-3,≤0.1 µM
NCCC(NC(=O)c1ccc(-c2ccc(C(F)F)cn2)[nH]1)c1nc(CO)cs1,-,pseudotyped,TZM-bl,HXB2,>25.4 µM
O=C(Cn1ccc(=O)[nH]c1=O)Nc1ccc([N+](=O)[O-])cn1,-,-,TZM-bl,IIIB,1 µM
CC1CCCCN1C(=O)Cn1cc(N2CCCS2(=O)=O)n2c(=O)c(O)c(C(=O)NCc3ccc(F)cc3S(=O)(=O)N(C)C)nc12,QHGS,-,HEK 293,-,0.5–1 µM
CNC(=O)c1ccc(F)c2c(C(=O)C(=O)N3CCN(S(=O)(=O)N4CCC4)CC3)c[nH]c12,-,-,HeLa,Recombinant,>5 µM
COc1cc(O)c2c(c1O)C1O[C@]3(C)C[C@H]1[C@@H](CO3)C2=O,-,pseudotyped,SupT1,-,11.6 µg/mL
CNC(=O)c1ccc(F)c2c(C(=O)C(=O)N3CCN(S(=O)(=O)N4CCCCC4)CC3)c[nH]c12,-,-,HeLa,Recombinant,1–5 µM
COC1=CC(=O)c2c(O)c(C)c3c(c2C1=O)OC(C)C3,-,pseudotyped,SupT1,-,26.8 µg/mL
CC(C)c1ccccc1-c1ccc2c(=O)n(-c3ccc(Cl)c4c(NS(C)(=O)=O)nn(C)c34)c([C@H](Cc3cc(F)cc(F)c3)NC(=O)Cn3nc(C(F)F)c4c3C(F)(F)[C@@H]3C[C@H]43)nc2c1,-,-,MT-2,NL4-3,0.0022 µM
Cn1nc(NS(C)(=O)=O)c2c(Cl)ccc(-n3c([C@H](Cc4cc(F)cc(F)c4)NC(=O)Cn4ccc5ccccc54)nc4nc(-c5ccccc5F)ccc4c3=O)c21,-,-,MT-2,NL4-3,0.003 µM
CC(C)(C)c1ccc(-n2nnnc2SCC(=O)Nc2ccccc2Cl)c(Br)c1,1(RT-K103N Y181C),-,C8166,RT-K103N Y181C,≥0.1 µM
COc1ccnc2c1c(C(=O)C(=O)N1CCN(S(=O)(=O)N(C)C)C[C@H]1C)cn2S(=O)(=O)N(C)C,-,-,HeLa,Recombinant,>5 µM
CN(C)C(=O)[C@H]1CC=CN1S(=O)(=O)NC(=O)N[C@@H](Cc1cc(F)cc(F)c1)C(=O)N(C)c1ccc2scnc2c1,-,-,MT-2,NL4-3,0.31 µM
Cn1nc(NS(C)(=O)=O)c2c(Cl)ccc(-n3c([C@H](Cc4cc(F)cc(F)c4)NC(=O)Cn4nc(C5CC5)c5c4C(F)(F)[C@H]4C[C@@H]54)nc4nc(OCCC(C)(F)F)ccc4c3=O)c21,-,-,MT-2,NL4-3,0.00005 µM
CC1CN(C(=O)C(C)n2ccn3c(=O)c(O)c(-c4ncc(Cc5ccc(F)cc5)s4)nc23)CC(C)O1,QHGS,-,HEK 293,-,1–10 µM
Nc1c(C(=O)NCc2ccc(F)cc2F)c(=O)n(O)c2ncc(CCCCCCO)cc12,Y143C,pseudotyped,293T,-,0.0012 µM
Cc1cn(CC(=O)Nc2ccc([N+](=O)[O-])cn2)c(=O)[nH]c1=O,-,-,TZM-bl,ADA5,30.65 µM
O=C(NCCCCN1CCCC2=C[C@@H]3C[C@@H](CN4CCCC[C@H]34)[C@@H]21)c1ccc(OC(F)(F)F)cc1,-,-,MT-4,NL4-3,1.12 µM
O=C(C(=O)N1CCN(C(=O)c2ccccc2)CC1)c1c[nH]c2c(F)ccc(Br)c12,-,-,HeLa + HELA CD4+/CCR5,-,<10 µM
COc1ccc(N(C)C(=O)[C@H](Cc2ccccc2)NC(=O)NS(=O)(=O)n2nc(CN)c3ccccc32)cc1,-,-,MT-2,NL4-3,0.18 µM
Cc1nc(C)c([C@H](OC(C)(C)C)C(=O)O)c(N2CCC(C)(C)CC2)c1-c1ccc2c(c1)CCN(Cc1ccc(F)c(F)c1)C2,-,-,MT-2,NL4-3,0.006 µM
Cc1cc(-c2ccc(C(F)(F)F)cn2)[nH]c1C(=O)NC(C)(CCN)c1nc(CO)cs1,-,pseudotyped,TZM-bl,HXB2,2.6 µM
Cc1cn(CC(=O)Nc2ccc(Br)cn2)c(=O)[nH]c1=O,-,-,TZM-bl,UG070,39.43 µM
CN1CCN(C(=O)Cn2ccn3c(=O)c(O)c(-c4ncc(Cc5ccc(F)cc5)s4)nc23)CC1,-,-,HEK 293,-,0.1–1 µM
COc1cc(O)c2c(c1)C(=O)C(CC(C)=O)=C(C)C2=O,-,pseudotyped,SupT1,-,20.4 µg/mL
O=C(NCCCCCCN1CCCC2=C[C@@H]3C[C@@H](CN4CCCC[C@H]34)[C@@H]21)c1ccc(Br)c(C(F)(F)F)c1,-,-,MT-4,NL4-3,>20 µM
O=C(C(=O)N1CCN(C(=O)c2ccc(C(F)(F)F)o2)CC1)c1c[nH]c2c(F)ccc(F)c12,-,-,HeLa + HELA CD4+/CCR5,-,<10 µM
Cc1ccnc2c1NC(=O)c1cccnc1N2C1CC1,-,-,TZM-bl,SF162,0.03179 µM
O=C(CCC(=O)n1cnc2c([N+](=O)[O-])cccc21)n1cnc2c([N+](=O)[O-])cccc21,-,-,TZM-bl,VB59,31.86 µM
Cc1nc(C)c([C@H](OC(C)(C)C)C(=O)O)c(N2CCC(C)(C)CC2)c1-c1ccc2c(c1)CCN(Cc1cccc(CC(F)(F)C(F)F)c1)C2,-,-,MT-2,NL4-3,≤0.1 µM

a–b is a range or a potency band. An empty or dashed field is not shown. ECn is the concentration giving n% inhibition of infection, replication or growth.